# Sequence variants of PSTVd loop 15 after infection

Data from the supplement of Wu et al. 2024, doi:10.1371/journal.ppat.1012142.

Region: loop 15 of PSTVd (intermediate strain), upper and lower strand joined, each 5' to 3', the first 7 letters being the upper strand, closing pairs included. Wild type: GGAAACCGCUACUAC. Varied positions (N): GGAAACCGNNNNNNC.

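Three N. benthamiana plants were inoculated with the whole mutant pool. Samples came from the inoculated region at 5 days, the leaf margin at 10 and upper systemic leaves at 12.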

Values are reads per thousand in the sample; higher means more abundant, 0 means not found.
Each site shows the three plants.
"Pool" is the share in the plasmid pool used as inoculum, on the same scale.
The inoculated region was read from the minus strand, the other sites from the plus strand.
Wild type was 33.9 per thousand in the pool and the most common sequence in every sample (inoculated region 202, 200, 159; leaf margin 724, 746, 710; systemic leaves 856, 883, 880).

sequence | pool | inoculated region | leaf margin | systemic leaves
GGAAACCGUCUUGCC | 0.208 | 0.115 / 0.0803 / 0.133 | 0 / 0 / 0.0200 | 0 / 0 / 0
GGAAACCGUCUUGGC | 0.176 | 0.180 / 0.112 / 0.171 | 0 / 0.0223 / 0 | 0 / 0 / 0
GGAAACCGUCUUGUC | 0.288 | 0.164 / 0.0643 / 0.133 | 0 / 0 / 0.0200 | 0 / 0 / 0
GGAAACCGUCUUUAC | 0.160 | 0.360 / 0.402 / 0.495 | 0.129 / 0.0223 / 0.0200 | 0.0161 / 0.0908 / 0.0684
GGAAACCGUCUUUCC | 0.112 | 0.115 / 0.145 / 0.152 | 0.0162 / 0 / 0.0200 | 0 / 0 / 0
GGAAACCGUCUUUGC | 0.256 | 0.0819 / 0.0643 / 0.133 | 0 / 0 / 0 | 0 / 0 / 0
GGAAACCGUCUUUUC | 0.208 | 0.0819 / 0.0803 / 0.0762 | 0 / 0 / 0.0200 | 0 / 0 / 0
GGAAACCGUGAAAAC | 0.208 | 0.328 / 0.257 / 0.343 | 0.146 / 0 / 0.100 | 0.0483 / 0.0303 / 0.0228
GGAAACCGUGAAACC | 0.176 | 0.0983 / 0.112 / 0.0952 | 0 / 0.0668 / 0 | 0 / 0 / 0
GGAAACCGUGAAAGC | 0.288 | 0.115 / 0.0803 / 0.0762 | 0 / 0.0223 / 0.0401 | 0 / 0 / 0
GGAAACCGUGAAAUC | 0.192 | 0.0983 / 0.0643 / 0.114 | 0 / 0 / 0 | 0.0161 / 0 / 0
GGAAACCGUGAACAC | 0.240 | 0.311 / 0.289 / 0.381 | 0.0647 / 0.0891 / 0.220 | 0.0161 / 0.0605 / 0.0912
GGAAACCGUGAACCC | 0.176 | 0.0983 / 0.0803 / 0.0762 | 0 / 0 / 0.0200 | 0 / 0 / 0
GGAAACCGUGAACGC | 0.304 | 0.0983 / 0.0643 / 0.0952 | 0 / 0 / 0.0401 | 0 / 0 / 0
GGAAACCGUGAACUC | 0.256 | 0.409 / 0.273 / 0.419 | 0.0970 / 0.134 / 0.100 | 0.0483 / 0 / 0
GGAAACCGUGAAGAC | 0.208 | 0.0655 / 0.145 / 0.0762 | 0 / 0 / 0 | 0.0161 / 0 / 0
GGAAACCGUGAAGCC | 0.192 | 0.0983 / 0.0321 / 0.190 | 0.0162 / 0.0223 / 0 | 0 / 0 / 0
GGAAACCGUGAAGGC | 0.224 | 0.0819 / 0.112 / 0.0571 | 0 / 0 / 0.0200 | 0 / 0 / 0
GGAAACCGUGAAGUC | 0.368 | 0.131 / 0.161 / 0.114 | 0.0162 / 0 / 0 | 0 / 0 / 0
GGAAACCGUGAAUAC | 0.272 | 0.377 / 0.177 / 0.286 | 0.129 / 0.178 / 0.140 | 0.0322 / 0.0151 / 0.0912
GGAAACCGUGAAUCC | 0.208 | 0.328 / 0.353 / 0.514 | 0.0808 / 0.156 / 0.0601 | 0.0322 / 0 / 0
GGAAACCGUGAAUGC | 0.256 | 0.328 / 0.257 / 0.495 | 0.0485 / 0.0223 / 0.100 | 0.0161 / 0.0303 / 0.182
GGAAACCGUGAAUUC | 0.304 | 0.246 / 0.353 / 0.343 | 0.162 / 0 / 0.220 | 0.0161 / 0.0756 / 0.228
GGAAACCGUGACAAC | 0.208 | 0.197 / 0.418 / 0.324 | 0.0970 / 0.0223 / 0.0801 | 0.0644 / 0.0454 / 0.0912
GGAAACCGUGACACC | 0.208 | 0.115 / 0.112 / 0.152 | 0 / 0 / 0.0200 | 0.0161 / 0 / 0
GGAAACCGUGACAGC | 0.304 | 0.246 / 0.161 / 0.171 | 0.0162 / 0 / 0.0200 | 0 / 0 / 0
GGAAACCGUGACAUC | 0.208 | 0.115 / 0.0803 / 0.0381 | 0 / 0.0445 / 0 | 0 / 0 / 0
GGAAACCGUGACCAC | 0.320 | 0.573 / 0.434 / 0.362 | 0.210 / 0.156 / 0.120 | 0.0483 / 0.0605 / 0.0912
GGAAACCGUGACCCC | 0.0960 | 0.147 / 0.0964 / 0.0381 | 0.0162 / 0 / 0 | 0 / 0 / 0
GGAAACCGUGACCGC | 0.224 | 0.0983 / 0.0964 / 0.171 | 0.0162 / 0 / 0.0200 | 0 / 0 / 0
GGAAACCGUGACCUC | 0.240 | 0.393 / 0.257 / 0.438 | 0.0485 / 0.0668 / 0.260 | 0.0322 / 0 / 0
GGAAACCGUGACGAC | 0.240 | 0.0328 / 0.0482 / 0.0762 | 0.0162 / 0 / 0.0601 | 0 / 0 / 0
GGAAACCGUGACGCC | 0.272 | 0.115 / 0.0321 / 0.0762 | 0.0323 / 0.0223 / 0.0200 | 0 / 0 / 0
GGAAACCGUGACGGC | 0.224 | 0.180 / 0.0161 / 0.0952 | 0.0162 / 0.0223 / 0.0200 | 0 / 0 / 0
GGAAACCGUGACGUC | 0.192 | 0.377 / 0.369 / 0.248 | 0 / 0 / 0.0200 | 0.0322 / 0.0151 / 0.0228
GGAAACCGUGACUAC | 0.208 | 0.442 / 0.418 / 0.286 | 0.146 / 0.0445 / 0.100 | 0.0322 / 0.0454 / 0
GGAAACCGUGACUCC | 0.0800 | 0.246 / 0.353 / 0.228 | 0.0808 / 0.0668 / 0.140 | 0.0161 / 0 / 0
GGAAACCGUGACUGC | 0.336 | 0.246 / 0.434 / 0.228 | 0.129 / 0.0223 / 0.120 | 0.0322 / 0.0605 / 0.137
GGAAACCGUGACUUC | 0.304 | 0.311 / 0.562 / 0.362 | 0.113 / 0.134 / 0.0801 | 0.0483 / 0.0605 / 0
GGAAACCGUGAGAAC | 0.240 | 0.229 / 0.337 / 0.324 | 0.129 / 0.0668 / 0.0601 | 0.0483 / 0.0303 / 0.0456
GGAAACCGUGAGACC | 0.256 | 0.295 / 0.241 / 0.267 | 0.146 / 0.0891 / 0.260 | 0.0644 / 0 / 0
GGAAACCGUGAGAGC | 0.128 | 0.360 / 0.193 / 0.343 | 0.0808 / 0.0668 / 0.180 | 0.0644 / 0 / 0
GGAAACCGUGAGAUC | 0.176 | 0.344 / 0.353 / 0.362 | 0.0485 / 0.134 / 0.0601 | 0.0644 / 0.0454 / 0.0684
GGAAACCGUGAGCAC | 0.208 | 0.328 / 0.353 / 0.248 | 0.0647 / 0.200 / 0.160 | 0 / 0.0756 / 0.114
GGAAACCGUGAGCCC | 0.208 | 0.0491 / 0.0482 / 0.0952 | 0.0162 / 0.0223 / 0 | 0 / 0 / 0
GGAAACCGUGAGCGC | 0.192 | 0.0819 / 0.0643 / 0.0762 | 0 / 0.0223 / 0 | 0 / 0 / 0
GGAAACCGUGAGCUC | 0.288 | 0.459 / 0.257 / 0.343 | 0.0970 / 0.0668 / 0.120 | 0 / 0 / 0
GGAAACCGUGAGGAC | 0.224 | 0.409 / 0.353 / 0.286 | 0.0485 / 0.0223 / 0.120 | 0.0644 / 0.0605 / 0.182
GGAAACCGUGAGGCC | 0.288 | 0.115 / 0.0643 / 0.0571 | 0 / 0.0223 / 0.0200 | 0 / 0 / 0
GGAAACCGUGAGGGC | 0.208 | 0.344 / 0.289 / 0.228 | 0.0970 / 0.111 / 0.180 | 0.0161 / 0 / 0
GGAAACCGUGAGGUC | 0.288 | 0.246 / 0.321 / 0.305 | 0.0647 / 0.0223 / 0.120 | 0.0805 / 0.0151 / 0.114
GGAAACCGUGAGUAC | 0.352 | 0.278 / 0.257 / 0.324 | 0.178 / 0.0223 / 0.140 | 0.113 / 0 / 0
GGAAACCGUGAGUCC | 0.288 | 0.442 / 0.353 / 0.552 | 0.0808 / 0.111 / 0.0801 | 0.0322 / 0.0151 / 0.0684
GGAAACCGUGAGUGC | 0.304 | 0.295 / 0.241 / 0.495 | 0.129 / 0.0891 / 0.160 | 0.0805 / 0.0454 / 0.0456
GGAAACCGUGAGUUC | 0.304 | 0.377 / 0.418 / 0.286 | 0.194 / 0.111 / 0.100 | 0.0161 / 0 / 0
GGAAACCGUGAUAAC | 0.336 | 0.197 / 0.321 / 0.495 | 0.113 / 0.0891 / 0.160 | 0.0161 / 0.0303 / 0.0228
GGAAACCGUGAUACC | 0.224 | 0.164 / 0.129 / 0.171 | 0 / 0 / 0.0200 | 0 / 0 / 0
GGAAACCGUGAUAGC | 0.256 | 0.115 / 0.129 / 0.0381 | 0 / 0 / 0.0200 | 0.0161 / 0 / 0
GGAAACCGUGAUAUC | 0.272 | 0.360 / 0.273 / 0.267 | 0.146 / 0.0891 / 0.180 | 0.0161 / 0.0756 / 0.0684
GGAAACCGUGAUCAC | 0.208 | 0.164 / 0.273 / 0.381 | 0.0970 / 0.134 / 0.0801 | 0.0644 / 0.0151 / 0.160
GGAAACCGUGAUCCC | 0.336 | 0.0983 / 0.0803 / 0.209 | 0.0323 / 0 / 0 | 0 / 0 / 0
GGAAACCGUGAUCGC | 0.176 | 0.0983 / 0.0161 / 0.0571 | 0 / 0 / 0 | 0.0161 / 0 / 0
GGAAACCGUGAUCUC | 0.224 | 0.246 / 0.337 / 0.362 | 0.113 / 0 / 0.160 | 0.0161 / 0 / 0
GGAAACCGUGAUGAC | 0.240 | 0.0983 / 0.0643 / 0.0952 | 0.0162 / 0 / 0 | 0 / 0 / 0
GGAAACCGUGAUGCC | 0.320 | 0.115 / 0.129 / 0.152 | 0 / 0 / 0 | 0.0161 / 0 / 0
GGAAACCGUGAUGGC | 0.176 | 0.0328 / 0.145 / 0.133 | 0 / 0.0223 / 0 | 0.0161 / 0 / 0
GGAAACCGUGAUGUC | 0.336 | 0.278 / 0.257 / 0.114 | 0 / 0 / 0.0200 | 0.0161 / 0 / 0
GGAAACCGUGAUUAC | 0.208 | 0.524 / 0.530 / 0.495 | 0.0485 / 0.0223 / 0.140 | 0.0322 / 0.0756 / 0.114
GGAAACCGUGAUUCC | 0.208 | 0.360 / 0.289 / 0.305 | 0.0808 / 0.0668 / 0.140 | 0.0483 / 0 / 0
GGAAACCGUGAUUGC | 0.288 | 0.311 / 0.369 / 0.362 | 0.0647 / 0.134 / 0.220 | 0.0322 / 0.0303 / 0.0912

6 of these entries, quoted again:

sequence	pool	inoculated region	leaf margin	systemic leaves
GGAAACCGUGAGCUC	0.288	0.459 / 0.257 / 0.343	0.0970 / 0.0668 / 0.120	0 / 0 / 0
GGAAACCGUGAAGUC	0.368	0.131 / 0.161 / 0.114	0.0162 / 0 / 0	0 / 0 / 0
GGAAACCGUGACUGC	0.336	0.246 / 0.434 / 0.228	0.129 / 0.0223 / 0.120	0.0322 / 0.0605 / 0.137
GGAAACCGUCUUUCC	0.112	0.115 / 0.145 / 0.152	0.0162 / 0 / 0.0200	0 / 0 / 0
GGAAACCGUGAAAUC	0.192	0.0983 / 0.0643 / 0.114	0 / 0 / 0	0.0161 / 0 / 0
GGAAACCGUGAGUUC	0.304	0.377 / 0.418 / 0.286	0.194 / 0.111 / 0.100	0.0161 / 0 / 0

Sequences that differ at fixed positions probably stem from PCR or sequencing errors, and defective variants can be carried along by functional ones.
With 43,870-66,106 reads a sample, very low values are single reads.